Pooled drug test results. Numbers come from NIAID ChemDB, via PubChem.

All rows: target-level tests

ICn: concentration for n% inhibition.

structure,protein,endpoint,species,dose,value
O=C(Cc1csc2ccccc12)Nc1ccsc1-c1nc(C(=O)O)c(O)c(=O)[nH]1,HCV polymerase,IC50,Hepatitis C virus,-,<25 µM
CC[C@@H](C=O)NC(=O)[C@@H]1C[C@@H](OCc2cc(F)cc3c2OCOC3)CN1C(=O)[C@@H](NC(=O)[C@@H](NC(=O)c1cnccn1)C(C)C)C(C)C,NS3 protease,Ki,Hepatitis C virus,-,1–100 µM
O=C(O)c1cnn2c(C3CCCCC3)c(-c3cnc4ccccc4c3)cnc12,RNA-dependent RNA polymerase,IC50,Hepatitis C virus,-,>10 µM
O=C(O)c1ccc2c(c1)nc(-c1ccc3nc(-c4cccc5ccccc45)ccc3c1)n2C1CCCCC1,NS5B polymerase,inhibition,Hepatitis C virus,100 µM,101%
O=C(O)c1cc2nc(-c3ccc(Cl)cc3)cc(-c3cccc(F)c3)n2n1,RNA-dependent RNA polymerase,IC50,Hepatitis C virus,-,>10 µM
CC1CCC(C(=O)N(c2cc(-c3ccccc3)sc2C(=O)O)C2CCCCC2)CC1,NS3 ATPase,IC50,Hepatitis C virus,-,<5 µM
CC[C@@H](C=O)NC(=O)[C@@H]1C[C@@H](OCc2ccccc2)CN1C(=O)[C@@H](NC(=O)[C@@H](NC(C)=O)C(C)C)C(C)C,NS3 protease,Ki,Hepatitis C virus,-,1–100 µM
COc1nc(Nc2ccc3cn[nH]c3c2)nc(NC2CC2)n1,DNA polymerase,inhibition,Hepatitis B virus,0.1 µg/mL,21%
O=C(O)c1nc(-c2ccccc2NS(=O)(=O)c2cc(C(F)(F)F)cc(C(F)(F)F)c2)[nH]c(=O)c1O,HCV polymerase,IC50,Hepatitis C virus,-,<100 µM
CC[C@@H](C=O)NC(=O)[C@@H]1C[C@@H](OCc2ccccc2)CN1C(=O)[C@@H](NC(=O)[C@H](Cc1ccc(-c2ccccc2)cc1)NC(=O)c1cnccn1)C(C)C,NS3 protease,Ki,Hepatitis C virus,-,>100 µM
COc1nc(Nc2ccc3cn[nH]c3c2)nc(N2CCN(CCO)CC2)n1,DNA polymerase,inhibition,Hepatitis B virus,1 µg/mL,40%
CCNC(=O)c1c(-c2ccc(F)cc2)oc2cc(-c3c(C)noc3C)c(OC)cc12,Nonstructural protein 5B,IC50,Hepatitis C virus,-,≤0.5 µM
CN(C(=O)c1ccccc1Br)c1cc(-c2ccccc2)sc1C(=O)O,NS3 ATPase,IC50,Hepatitis C virus,-,5–20 µM
O=C(Nc1ccccc1-c1nc(C(=O)O)c(O)c(=O)[nH]1)c1ccccc1,HCV polymerase,IC50,Hepatitis C virus,-,<100 µM
COc1ccc(-c2ccco2)c(-c2ccc3cc(-c4nc5cc(C(=O)O)ccc5n4C4CCCCC4)ccc3n2)c1,NS5B polymerase,inhibition,Hepatitis C virus,100 µM,101%
Cc1ccccc1S(=O)(=O)Nc1cc(-c2ccc(CO)cc2)sc1C(=O)O,NS3 ATPase,IC50,Hepatitis C virus,-,<5 µM
COc1ccc(-c2cc(-c3ccc(Cl)cc3Cl)nc3cc(C(=O)O)nn23)cc1,RNA-dependent RNA polymerase,IC50,Hepatitis C virus,-,>10 µM
C=CCN(C(=O)c1ccc(C)cc1)c1cc(-c2ccc(/C=C/C(=O)O)cc2)sc1C(=O)O,NS3 ATPase,IC50,Hepatitis C virus,-,<5 µM
CC[C@@H](C=O)NC(=O)[C@@H]1C[C@@H](OCc2ccccc2)CN1C(=O)[C@@H](NC(=O)COc1ccccc1C=O)C(C)C,NS3 protease,Ki,Hepatitis C virus,-,>100 µM
Oc1cccc(-c2cnc3c(Br)cnn3c2C2CCCCC2)c1,RNA-dependent RNA polymerase,IC50,Hepatitis C virus,-,>10 µM
COc1nc(Nc2ccc3cn[nH]c3c2)nc(-n2ccnc2)n1,DNA polymerase,inhibition,Hepatitis B virus,0.01 µg/mL,11%
Cc1oc(-c2ccc(Cl)cc2)cc1-c1ccc2cc(-c3nc4cc(C(=O)O)ccc4n3C3CCCCC3)ccc2n1,NS5B polymerase,inhibition,Hepatitis C virus,100 µM,102%
COc1ccc(S(=O)(=O)Nc2cc(-c3ccccc3)sc2C(=O)O)c([N+](=O)[O-])c1,NS3 ATPase,IC50,Hepatitis C virus,-,5–20 µM
O=C(O)c1ccc2c(c1)nc(-c1ccc3nc(CCCO)ccc3c1)n2C1CCCCC1,NS5B polymerase,inhibition,Hepatitis C virus,33 µM,83.75%
CNC(=O)c1c(-c2ccc(F)cc2)oc2cc(N3CCOCC3)c(OC3CCCC3)cc12,Nonstructural protein 5B,IC50,Hepatitis C virus,-,≤0.5 µM
NC(CC(=O)Nc1ccsc1-c1nc(C(=O)O)c(O)c(=O)[nH]1)c1ccccc1,HCV polymerase,IC50,Hepatitis C virus,-,<25 µM
COC(=O)c1cc2ncc(-c3ccc(Oc4ccccc4)cc3)c(-c3ccccc3)n2n1,RNA-dependent RNA polymerase,IC50,Hepatitis C virus,-,>10 µM
COc1nc(NCCN2CCOCC2)nc(Nc2ccc3[nH]ncc3c2)n1,DNA polymerase,inhibition,Hepatitis B virus,1 µg/mL,73%
O=C(O)c1ccc2c(c1)nc(-c1ccc3nc(-c4cc(O)ccc4-c4ccccc4)ccc3c1)n2C1CCCCC1,NS5B polymerase,inhibition,Hepatitis C virus,33 µM,102%
O=C(O)c1ccc(-c2ccc(-c3nc4cc(C(=O)O)[nH]n4c(=O)c3C3CCCCC3)cc2)cc1,RNA-dependent RNA polymerase,IC50,Hepatitis C virus,-,1–10 µM
O=C(O)c1ccc2c(c1)nc(-c1ccc3nc(-c4ccccc4)cc(Nc4ccc(Cl)cc4)c3c1)n2C1CCCCC1,NS5B polymerase,inhibition,Hepatitis C virus,33 µM,97.59%
CNC(=O)c1c(-c2ccc(F)cc2)oc2cc(-c3cc(CO)on3)c(OC)cc12,Nonstructural protein 5B,IC50,Hepatitis C virus,-,≤0.5 µM
CC[C@@H](C=O)NC(=O)[C@@H]1C[C@@H](OCc2ccccc2)CN1C(=O)[C@@H](NC(=O)[C@H](CC1CCCCC1)NC(=O)c1cnccn1)C(C)C,NS3 protease,Ki,Hepatitis C virus,-,1–100 µM
O=C(O)c1cc2nc(-c3ccc(OCc4ccccc4)cc3)c(C3CCCCC3)c(=O)n2[nH]1,RNA-dependent RNA polymerase,IC50,Hepatitis C virus,-,1–10 µM
O=C(NCc1ccc(C(F)(F)F)cc1)Nc1cscc1-c1nc(C(=O)O)c(O)c(=O)[nH]1,HCV polymerase,IC50,Hepatitis C virus,-,<25 µM
O=C(NC(Cc1ccc(O)cc1)C(=O)O)c1ccc2c(c1)nc(-c1ccc3nc(-c4ccccc4)cnc3c1)n2C1CCCCC1,NS5B polymerase,inhibition,Hepatitis C virus,33 µM,96.88%
CN(C(=O)c1sccc1Cl)c1cc(-c2ccccc2)sc1C(=O)O,NS3 ATPase,IC50,Hepatitis C virus,-,5–20 µM
O=C(NCc1ccoc1)Nc1cscc1-c1nc(C(=O)O)c(O)c(=O)[nH]1,HCV polymerase,IC50,Hepatitis C virus,-,<25 µM
COc1ccc(-c2ccc(F)c(Cl)c2)c(-c2ccc3cc(-c4nc5cc(C(=O)O)ccc5n4C4CCCCC4)ccc3n2)c1,NS5B polymerase,inhibition,Hepatitis C virus,33 µM,97.62%
COc1nc(Nc2ccc3cn[nH]c3c2)nc(N2CCC(O)CC2)n1,DNA polymerase,inhibition,Hepatitis B virus,0.01 µg/mL,12%
O=C(O)c1cc2nc(-c3ccc(F)cc3)cc(-c3ccc(OCc4ccccc4)cc3)n2n1,RNA-dependent RNA polymerase,IC50,Hepatitis C virus,-,>10 µM
Cc1ccc(C(=O)N(C)c2cc(-c3ccc(OC(F)(F)F)cc3)sc2C(=O)O)cc1,NS3 ATPase,IC50,Hepatitis C virus,-,5–20 µM
CNC(=O)c1c(-c2ccc(F)cc2)oc2cc(CN(C)S(C)(=O)=O)c(OC(C)C)cc12,Nonstructural protein 5B,IC50,Hepatitis C virus,-,≤0.5 µM
O=C(O)c1nc(-c2sccc2NC(=O)C(Cc2ccccc2)c2ccccc2)[nH]c(=O)c1O,HCV polymerase,IC50,Hepatitis C virus,-,<25 µM

Repeating the first 6 entries:

structure | protein | endpoint | species | dose | value
O=C(Cc1csc2ccccc12)Nc1ccsc1-c1nc(C(=O)O)c(O)c(=O)[nH]1 | HCV polymerase | IC50 | Hepatitis C virus | - | <25 µM
CC[C@@H](C=O)NC(=O)[C@@H]1C[C@@H](OCc2cc(F)cc3c2OCOC3)CN1C(=O)[C@@H](NC(=O)[C@@H](NC(=O)c1cnccn1)C(C)C)C(C)C | NS3 protease | Ki | Hepatitis C virus | - | 1–100 µM
O=C(O)c1cnn2c(C3CCCCC3)c(-c3cnc4ccccc4c3)cnc12 | RNA-dependent RNA polymerase | IC50 | Hepatitis C virus | - | >10 µM
O=C(O)c1ccc2c(c1)nc(-c1ccc3nc(-c4cccc5ccccc45)ccc3c1)n2C1CCCCC1 | NS5B polymerase | inhibition | Hepatitis C virus | 100 µM | 101%
O=C(O)c1cc2nc(-c3ccc(Cl)cc3)cc(-c3cccc(F)c3)n2n1 | RNA-dependent RNA polymerase | IC50 | Hepatitis C virus | - | >10 µM
CC1CCC(C(=O)N(c2cc(-c3ccccc3)sc2C(=O)O)C2CCCCC2)CC1 | NS3 ATPase | IC50 | Hepatitis C virus | - | <5 µM

Percent inhibition refers to the dose given; in toxicity tests it is the harm to the cells. a–b is a range or a potency band. Blank or dashed fields: not listed here. Neighbouring rows are from separate reports.